{
  "source": "patent US6063612A",
  "about": "“Antiviral reagents based on RNA-binding proteins” (priority 1991, dated 2000)",
  "key": {"TAT24C (HIV-1)": {"molecular_target": "TAT24C (HIV-1) (UniProt P69698)", "experiment": "EMSA", "details": "200 ng peptide, 70 mM NaCl, synthetic protein, label: 32P"}, "TAT24C-phen (HIV-1)": {"molecular_target": "TAT24C-phen (HIV-1) (UniProt P69698)", "experiment": "EMSA", "details": "200 ng, synthetic protein, label: 32P"}},
  "data": [
    {"sequence": "GGUCUCUCUGGUUAGACCAGAUCUGAGCCUGGGAGCUCUCUGGCUAACUAGAGAACCC [HIV-1 TAR]", "values": [
      {"measurement": "binding result", "setting": "TAT24C (HIV-1); 0.2 mM EDTA, 10 mM Tris pH 7.5, 25 C", "result": "binds"},
      {"measurement": "binding result", "setting": "TAT24C-phen (HIV-1); shift virtually identical to unmodified peptide", "result": "binds"}
    ]},
    {"sequence": "GCAGAUCUGAGCCUGGGAGCUCUCUGC [deltaTAR]", "values": [
      {"measurement": "binding result", "setting": "TAT24C-phen (HIV-1); 70 mM NaCl, 25 C, variant of HIV-1 TAR", "result": "binds"}
    ]},
    {"sequence": "GGGAGGCUGGCAGAUUGAGCCCUGGGAGGUUCUCUCCAGCCUAGCAGGUAGAGCCUGGGUGUUCCCUGCUAGCUCCC [HIV-2 TAR]", "values": [
      {"measurement": "binding result", "setting": "TAT24C (HIV-1); 25 C", "result": "binds"},
      {"measurement": "binding result", "setting": "TAT24C-phen (HIV-1); 70 mM NaCl, 25 C", "result": "binds"}
    ]}
  ]
}
